Reference: patent publication US20060111335A1, “Photoactivated anti-viral and anti-cancer agent” (priority 2002, published 2006)

System: Calf thymus DNA
Assay: Dark association with DNA, UV-Visible titration (Example XI)
Assay type: binding
Settings: for Aobserved / Δεapp = εf − εapp / εapp / Aobs / [DNA]/Δεapp: pH 7, I=0.15; for Δε = εf − εb: from slope of [DNA]/Δεapp versus [DNA]; for εb, extinction coefficient of the DNA-bound form: εb = εf − Δε
[1] = 337 nm, [DNA] 0, [OCTBP] 2.26E−5
[2] = 337 nm, [DNA] 1.30E−4, [OCTBP] 2.12E−5
[3] = 337 nm, [DNA] 1.70E−4, [OCTBP] 2.08E−5
[4] = 337 nm, [DNA] 2.46E−4, [OCTBP] 2.00E−5
[5] = 337 nm, [DNA] 2.81E−4, [OCTBP] 1.96E−5
[6] = 337 nm, [DNA] 3.80E−4, [OCTBP] 1.86E−5
[7] = 337 nm, [DNA] 4.53E−5, [OCTBP] 2.21E−5
[8] = 380 nm, [DNA] 0, [BISNMe2] 3.02E−5
[9] = 380 nm, [DNA] 1.30E−4, [BISNMe2] 2.84E−5
[10] = 380 nm, [DNA] 1.70E−4, [BISNMe2] 2.78E−5
[11] = 380 nm, [DNA] 2.09E−4, [BISNMe2] 2.72E−5
[12] = 380 nm, [DNA] 2.46E−4, [BISNMe2] 2.67E−5
[13] = 380 nm, [DNA] 2.81E−4, [BISNMe2] 2.62E−5
[14] = 380 nm, [DNA] 3.16E−4, [BISNMe2] 2.57E−5
[15] = 380 nm, [DNA] 8.88E−5, [BISNMe2] 2.89E−5

CC1=C[N]2c3c4c(ccc3=C1C)=C(C)C(C)=C[N]4[Rh+]21([Cl])([Cl])[N]2C=C(C)C(C)=c3ccc4c(c32)[N]1C=C(C)C=4C.[Cl-] [OCTBP, cis-dichlorobis(3,4,7,8-tetramethyl-1,10-phenanthroline) rhodium(III) chloride]
Aobserved [1]: 0.216
Δεapp = εf − εapp [1]: 0
εapp [1]: 9558
Aobserved [2]: 0.209
Δεapp = εf − εapp [2]: 300
εapp [2]: 9858
Aobserved [3]: 0.206
Δεapp = εf − εapp [3]: 346
εapp [3]: 9904
Aobserved [4]: 0.199
Δεapp = εf − εapp [4]: 392
εapp [4]: 9950
Aobserved [5]: 0.195
Δεapp = εf − εapp [5]: 391
εapp [5]: 9949
Aobserved [6]: 0.187
Δεapp = εf − εapp [6]: 496
εapp [6]: 10054
Aobserved [7]: 0.214
Δεapp = εf − εapp [7]: 125
εapp [7]: 9683
Δε = εf − εb: 769.23
εb, extinction coefficient of the DNA-bound form: 8788.77

CN(C)C1=c2ccc3c4c2[N](C=C1)[Rh+]1([Cl])([Cl])([N]4C=CC=3N(C)C)[N]2C=CC(N(C)C)=c3ccc4c(c32)[N]1C=CC=4N(C)C.[Cl-] [BISNMe2, cis-dichlorobis(N,N-dimethylamino)-1,10-phenanthroline} rhodium(III) chloride]
Aobs [8]: 0.4550
[DNA]/Δεapp [8]: 0
Δεapp = εf − εapp [8]: 0
εapp [8]: 15066
Aobs [9]: 0.3086
[DNA]/Δεapp [9]: 3.10E−8
Δεapp = εf − εapp [9]: 4200
εapp [9]: 10866
Aobs [10]: 0.2896
[DNA]/Δεapp [10]: 3.66E−8
Δεapp = εf − εapp [10]: 4649
εapp [10]: 10417
Aobs [11]: 0.2756
[DNA]/Δεapp [11]: 4.24E−8
Δεapp = εf − εapp [11]: 4934
εapp [11]: 10132
Aobs [12]: 0.2668
[DNA]/Δεapp [12]: 4.85E−8
Δεapp = εf − εapp [12]: 5073
εapp [12]: 9993
Aobs [13]: 0.2644
[DNA]/Δεapp [13]: 5.65E−8
Δεapp = εf − εapp [13]: 4974
εapp [13]: 10092
Aobs [14]: 0.2526
[DNA]/Δεapp [14]: 6.03E−8
Δεapp = εf − εapp [14]: 5237
εapp [14]: 9829
Aobs [15]: 0.3419
[DNA]/Δεapp [15]: 2.74E−8
Δεapp = εf − εapp [15]: 3236
εapp [15]: 11830
Δε = εf − εb: 5000
εb, extinction coefficient of the DNA-bound form: 10066
